Results: article PMC3431306

Biological target: HIV-1 CA N-terminal domain (CA^N) mutant M66F (HIV-1)
Assay: ITC; CPSF6_(313–327) (10 mM) in the syringe, CA^N (600 µM) in the cell; 50 mM potassium phosphate (pH 7.4), 100 mM NaCl, 1 mM DTT; MicroCal ITC-200

For “CPSF6_(313–327) peptide (cleavage and polyadenylation specific factor 6, residues 313–327) (from UniProt Q16630-2 313-327)”, which fold reduction of affinity against wild type HIV-1 CA^N is on record?
The fold reduction of affinity against wild type HIV-1 CA^N was 7 fold.
